## Share of PSTVd stem 3 variants by leaf site

Region: stem 3 of PSTVd (intermediate strain), upper and lower strand joined, each 5' to 3', the first 8 letters being the upper strand. Wild type: GUGGUUCCGGAACCGC. Varied positions (N): GUGGUUCCGNANNCNN.

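A pool of all variants was put on leaves of three Nicotiana benthamiana plants. Progeny were sequenced from the inoculated region (day 5), the margin of the inoculated leaf (day 10) and systemic leaves (day 12).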

Numbers give reads per thousand; 0 = not seen among the reads, higher = more abundant.
Each value is the mean of three plants.
"Pool" is the share in the plasmid pool used as inoculum, on the same scale.
The inoculated region was read from the minus strand, the other sites from the plus strand.
IR is the inoculated region, LM the leaf margin, Sys the systemic leaves.
For reference, wild type rose from 17.3 per thousand in the pool to 330, 345, 235 (inoculated region), 794, 766, 816 (leaf margin) and 830, 792, 869 (systemic leaves).

GUGGUUCCGUAAGCUC (pool 0.985) read IR 0.303; LM 0.0120; Sys 0.
GUGGUUCCGUAACCGC (pool 0.954) read IR 0.971; LM 1.62; Sys 1.18.
GUGGUUCCGCAUACAU (pool 0.908) read IR 0.809; LM 0.00944; Sys 0.
GUGGUUCCGAAAGCAU (pool 1.12) read IR 0.920; LM 1.04; Sys 1.08.
GUGGUUCCGAAUCCUG (pool 0.800) read IR 0.288; LM 0.0226; Sys 0.
GUGGUUCCGCAGGCAC (pool 0.662) read IR 0.834; LM 0.132; Sys 0.
GUGGUUCCGAAAGCCG (pool 0.985) read IR 0.346; LM 0; Sys 0.
GUGGUUCCGCAAACAG (pool 0.693) read IR 0.244; LM 0.00944; Sys 0.
GUGGUUCCGAAGUCCU (pool 0.769) read IR 1.34; LM 1.94; Sys 2.19.
GUGGUUCCGUACUCAC (pool 0.785) read IR 0.840; LM 0.0963; Sys 0.
GUGGUUCCGUACGCCA (pool 1.05) read IR 0.364; LM 0; Sys 0.
GUGGUUCCGGAACCAG (pool 0.816) read IR 0.464; LM 0.0106; Sys 0.
GUGGUUCCGAAUACAU (pool 0.862) read IR 0.633; LM 0.512; Sys 0.
GUGGUUCAGAAGCCUG (pool 0.0154) read IR 0; LM 0; Sys 0.
GUGGUUCCGCAGACGA (pool 0.893) read IR 0.367; LM 0.0106; Sys 0.
GUGGUUCCGGAGCCGC (pool 0.923) read IR 10.8; LM 12.1; Sys 13.0.
GUGGUUCCGGAUCCAG (pool 0.954) read IR 0.441; LM 0.0120; Sys 0.
GUGGUUCCGUAAGCGG (pool 0.831) read IR 0.345; LM 0.0335; Sys 0.0683.
GUGGUUCCGUAGACGU (pool 0.816) read IR 0.798; LM 0; Sys 0.
GUGGUUCCGAACUCAU (pool 0.769) read IR 0.825; LM 1.08; Sys 1.08.
GUGGUUCCGGAGCCGU (pool 0.785) read IR 0.671; LM 0.131; Sys 0.
GUGGUUCCGCAAUCCA (pool 0.877) read IR 0.274; LM 0.0106; Sys 0.
GUGGUUCCGAAUUCUG (pool 0.985) read IR 0.896; LM 0.639; Sys 0.
GAGGUUCCGCAAUCAU (pool 0.0154) read IR 0; LM 0; Sys 0.
GUGGUUCCGGAGGCGC (pool 1.00) read IR 0.455; LM 0.0241; Sys 0.0434.

Extract of 3 entries:

- GUGGUUCCGCAAACAG (pool 0.693): IR 0.244; LM 0.00944; Sys 0
- GUGGUUCCGUACGCCA (pool 1.05): IR 0.364; LM 0; Sys 0
- GUGGUUCCGCAGACGA (pool 0.893): IR 0.367; LM 0.0106; Sys 0

Samples held 27,691 to 54,225 reads, so the smallest values rest on one or two reads.
The authors trace changes outside the varied positions to PCR and sequencing errors or to mutation in the plant; presence does not show that a variant is infectious alone.

Values reported by Wu et al. 2024 (doi:10.1371/journal.ppat.1012142).